One compound from patent US20020086278A1, “CHROMOGENIC MEDIA CONTAINING BLOOD OR HEMIN” (priority 1999, published 2002) can be followed below.

This data set is described as follows: Color contrast of chromogen on blood plate.

For the compound `Oc1c[nH]c2cc(Cl)ccc12` [6-chloro-3-indoxyl], the “Contrast on Blood Plate” value was “Poor*”. Besides, for the setting “colony color of chromogen”, the Colony result is “grey purple”.
